Reference: PubChem BioAssay AID1259414 (Drosophila RNAi Screening Center, 2018)
In all, the deposit lists about 24,000 reagents; this is a random part of those that have a named target and a result. Of all reagents, about 1,210 (5%) were called active. 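Inactive calls also include excluded dsRNAs with several or no targets, genes unexpressed in JW18, and well A1, regardless of score.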

- Test: 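Genome-wide screen for host control of endosymbiont load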 (primary screen)
- System: Drosophila JW18 cells infected with Wolbachia
- Knock-down reagent: long dsRNA against Drosophila genes, 0.25 µg dsRNA per well of a 384-well plate
- Duration: 5 days
- Treatment: cells persistently infected with Wolbachia before knock-down; no added drug
- Detection: 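Automated imaging of bacterial rRNA staining divided by host cell count, reported as plate-normalised robust z-score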
- Scale: Wolbachia per cell robust z: higher = more Wolbachia per host cell than the plate typical
- Active means: 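Hit when robust z is 1.5 or more, or -1.5 or less, in at least two of three replicates; excludes dsRNAs with several or no targets, genes not expressed in JW18 and well A1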

target gene | dsRNA | Wolbachia per cell robust z, rep 1 | Wolbachia per cell robust z, rep 2 | Wolbachia per cell robust z, rep 3 | Outcome
sona | DRSC04089 | 0.188 | 0.0974 | 0.539 | inactive
sona | DRSC04574 | 0.505 | -1.69 | 0.777 | inactive
sona | DRSC04575 | -0.867 | -5.19 | -1.45 | inactive
CG7724 | DRSC10905 | -1.62 | -1.89 | -1.25 | inactive
CG9018 | DRSC08618 | 0.411 | -0.926 | 0.593 | inactive
snu | DRSC16589 | -12.2 | 0.207 | 0.0401 | inactive
fra | DRSC07621 | -0.208 | -2.31 | 0.159 | inactive
Cpr49Ag | DRSC07203 | 0.928 | 0.499 | 0.43 | inactive
Cpr49Ag | DRSC28612 | -0.0131 | -0.713 | 1.44 | inactive
CG15930 | DRSC18107 | 1.06 | 0.356 | -2.13 | inactive
CG15930 | DRSC29656 | -0.274 | 0.213 | 0.326 | inactive
Patsas | DRSC02975 | 1.6 | -1.38 | -5.09 | inactive
Patsas | DRSC28826 | 1.43 | 2.11 | 0.893 | inactive
CycH | DRSC11861 | 0.457 | 0.522 | 0.634 | inactive
CycH | DRSC21308 | 0.818 | 0.161 | -0.314 | inactive
caz | DRSC23280 | 0.546 | -0.487 | 1.2 | inactive
caz | DRSC29957 | 0.195 | -0.596 | 0.44 | inactive
MESR6 | DRSC10720 | -2.75 | 0.235 | 0.621 | inactive
MESR6 | DRSC28344 | 0.47 | 0.801 | 0.0232 | inactive
Paip1 | DRSC07302 | 0.234 | -0.287 | 0.48 | inactive
Paip1 | DRSC23561 | 0.218 | 0.845 | 0.0624 | inactive
CG9411 | DRSC20184 | 0.234 | 0.202 | -2.77 | inactive
CG9411 | DRSC26840 | 0.803 | -2.19 | 0.00494 | inactive
LanA | DRSC11207 | -0.82 | -7.83 | -2.88 | active
LanA | DRSC40744 | 0.553 | 0.369 | -0.612 | inactive
CG3328 | DRSC04357 | -1.12 | -0.617 | -1.64 | inactive
CG3328 | DRSC25998 | 0.113 | -0.604 | 0.471 | inactive
CG8388 | DRSC07157 | 0.756 | 0.23 | -0.513 | inactive
mthl15 | DRSC01120 | -0.925 | -1.4 | -0.632 | inactive
Rsf1 | DRSC03423 | -0.308 | 0.195 | 0.13 | inactive
Rsf1 | DRSC21953 | 0.125 | 0.424 | 0.575 | inactive
Rsf1 | DRSC27444 | 1.08 | 1.31 | 1.39 | inactive
CG7407 | DRSC11824 | 0.869 | 0.708 | 0.308 | inactive
CG32720 | DRSC17529 | 0.153 | -0.611 | 0.504 | inactive
CG8534 | DRSC16439 | -0.334 | -7.45 | 0.116 | inactive
CG11068 | DRSC19369 | 0.905 | 0.44 | 1.21 | inactive
coil | DRSC07242 | 0.425 | -1.29 | -0.251 | inactive
coil | DRSC26055 | 0.27 | -2.52 | -0.678 | inactive
CG15213 | DRSC10213 | -0.101 | 0.0181 | -2.81 | inactive
CG15213 | DRSC41496 | -0.396 | -0.0812 | -0.682 | inactive
FarO | DRSC18475 | -0.533 | 0.104 | -0.032 | inactive
lncRNA:CR31386 | DRSC23186 | 1.04 | 0.846 | 0.857 | inactive
lncRNA:CR31386 | DRSC25849 | -0.436 | -0.922 | -0.663 | inactive
Nurf-38 | DRSC04629 | 1.05 | 0.981 | 1.22 | inactive
Nurf-38 | DRSC26858 | -0.07 | -0.322 | 0.436 | inactive
CG7607 | DRSC10889 | 0.159 | -1.03 | -1.51 | inactive
